The list shows a part of the results. Env chains of viruses from a treatment-interruption trial, translated from the printed DNA. IC50 / IC80 of two broadly neutralizing antibodies; lower = more sensitive virus; >50 µg/ml means not reached and <0.001 µg/ml is below the lowest dose. No active / inactive call.
Columns and labels:
[1] = target: antibody 10-1074; assay: neutralization IC50; higher = virus less sensitive to the antibody
Experimental: (§1)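 Pseudovirus bearing the Env chain mixed with antibody, from 50 µg/ml in fivefold dilutions, on TZM-bl reporter cells, in duplicate.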

[2] = target: antibody 3BNC117; assay: as above
Experimental: as §1

[3] = target: antibody 10-1074; assay: neutralization IC80; higher = virus less sensitive to the antibody
Experimental: as §1

[4] = target: antibody 3BNC117; assay: as above
Experimental: as §1

Binder	neutralization IC50 [1]	neutralization IC50 [2]	neutralization IC80 [3]	neutralization IC80 [4]
HIV-1 Env, rebound clone, antibody arm (protein) MRAKGIRKNCQDLLKGGILLLGILMICSAAGNLWVTVYYGVPVWKDATTTLFCASDAKGYSKEAHNVWATHACVPTDPDPREIVMGNVTENFNMWKNDMVDQMHEDIISLWDQSLKPCVKLTPLCVTLNCTNLNITNLNNTNSNTSDTNNNTSSENGSEEMKNCSFNVTTIKGKYQKEYAVLYKLDLVPIDNNDNTSYMLINCNTSVITQACPKISFEPIPIHYCAPAGFAILKCNNKTFNGTGPCTNVSSVQCTHGIRPVVSTQLLLNGSLAEEEVVIRSENFTDNAKTIIVQLKDPIQINCTRPNNNTRKSIHIGPGRAFYATGQIIGNIRQAYCNISKEQWNEALNQTVRKLREQFGNKTMIFNQSSGGDPEIVMHTFNCGGEFFYCNTTQLFNSTWYDTTNSTDSNNNTIKLPCRIKQVINRWQEVGKAMYAPPISGPIRCSSNITGLLLVRDGGNNNSSNSSETFRPGGGNMKDNWRSELYKYKVVKIEPLGVAPTKAKRRVVQRERRAVTLGAMFLGFLGTAGSTMGAASLTLTVQARQLLSGIVQQQSNLLRAIEVHQHMLQLTVWGIKQLQARVLAVERYLKDQQLLGIWGCSGKLICTTTVPWNASWSKKNLSEIWDNMTWIEWEREIQNYTEEIYSLIEKSQNQQAKNEQELLELDKWANLWNWFDITNWLWYIKIFIMIVGGLIGLRIVFTVLSIVNRVRQGYSPLSFQTRLPTQRGPDRPGGTEEEGGERDRDTSRPLVDGFLAIIWVDLRSLFLFSYHRLRDLLLIVTRIVETLGRRGWELLKYWWNLLQYWSQELKNSAISLLNATAIAVAEGTDRVIELIQRAGRAIIHIPRRIRQGLESALL	> 50 µg/mL	0.267 µg/mL	> 50 µg/mL	1.16 µg/mL
HIV-1 Env, rebound clone, antibody arm (protein) MKAKETRKNYQHLWRWGIMLLGMLMICSAASQLWVTVYYGVPVWKEATTTLFCASDAKAYDTEVHNVWATHACVPTDPNPQEVVLGNVTEDFNMWKNNMVEQMHEDIISLWDQSLKPCVKITPLCVTLNCTEYINDTSTTWGQMEKGEIKNCSFNVTTNIKNKMQKEYALFYKLDVVPIGDNSTNYRLIKCNTSAITQACPKVSFQPIPIHYCAPAGFAILKCNNKTFNGLGPCTNVSTVQCTHGIRPVVSTQLLLNGSLAEEEIVIRSENFSDNAKNIIVHLNASIEINCTRPNNNTRKSITIGPGRAFYATGDVIGDIRQAHCNISGEKWNEALKQIAIKLREQFGHNKTIVFNQSSGGDPEIVAHSVNCGGEFFYCNSTKLFNSTWHSNGIQNNTTESNETITLPCKIKQIINLWQEVGKAIYAPPISGPIRCSSNITGLLLTRDGGNTSETNKETFRPGGGDMRDNWRSELYKYKVVKIEPLGVAPTKAKRRVVQRERRAVGTFGALFLGFLGTAGSTMGAASITLTVQARQLLSGIVQQQNNLLKAIEAQQHLLQLTVWGIKQLQARVLAVERYLKDQQLLGLWGCSGKLICTTTVPWNASWSNKSLEQIWENMTWMQWEKEIDNYTGIIYSLISESQLQQEKNEKELLELDKWASLWTWFDITNWLWYIKIFIMIVGGLIGLRIVFAVLSIVNKVRKGYSPLSFQTRLPTPRGPDRPEGIEEEGGERGRDTSIRLVDGFLALIWDDLRNLCLFSYHHLRDLILIVVRTVELLGRRGWELLKYWWNLLKYWSQELKKSAVSLFNAAAIAVAEGTDRVIEVVQRAGRGILHVPRRIRQGLERALQ	0.002 µg/mL	0.105 µg/mL	0.008 µg/mL	0.379 µg/mL
HIV-1 Env, rebound clone, antibody arm (protein) MKAKETRKNYQHLWRWGIMLLGMLMICSAASQLWVTVYYGVPVWKEATTTLFCASDAKAYDTEVHNVWATHACVPTDPNPQEVVLGNVTEDFNMWKNNMVEQMHEDIISLWDQSLKPCVKITPLCVTLNCTEYINDTSTTWGQMEKGEIKNCSFNVTTNIKNKMQKEYALFYKLDVVPIGDNSTNYRLIKCNTSAITQACPKVSFQPIPIHYCAPAGFAILKCNNKTFNGLGPCTNVSTVQCTHGIRPVVSTQLLLNGSLAEEEIVIRSENFSDNAKNIIVHLNASIEINCTRPNNNTRKSITIGPGRAFYATGDVIGDIRQAHCNISGEKWNEALKQIAIKLREQFGHNKTIVFNQSSGGDPEIVAHSVNCGGEFFYCNSTKLFNSTWHSNGIQNNTTESNETITLPCKIKQIINLWQEVGKAIYAPPISGPIRCSSNITGLLLTRDGGNTSETNKEIFRPGGGDMRDNWRSELYKYKVVKIEPLGVAPTKAKRRVVQRERRAVGTFGALFLGFLGTAGSTMGAASITLTVQARQLLSGIVQQQNNLLKAIEAQQHLLQLTVWGIKQLQARVLAVERYLKDQQLLGLWGCSGKLICTTTVPWNASWSNKSLEQIWENMTWMQWEKEIDNYTGIIYSLISESQLQQEKNEKELLELDKWASLWTWFDITNWLWYIKIFIMIVGGLIGLRIVFAVLSIVNKVRKGYSPLSFQTRLPTPRGPDRPEGIEEEGGERGRDTSIRLVDGFLALIWDDLRNLCLFSYHHLRDLILIVVRTVELLGRRGWELLKYWWNLLKYWSQELKKSAVSLFNAAAIAVAEGTDRVIEVVQRAGRGILHVPRRIRQGLERALQ	0.002 µg/mL	0.166 µg/mL	0.008 µg/mL	0.726 µg/mL
HIV-1 Env, rebound clone, antibody arm (protein) MRVREIRRNYLWRWGTLLLGILMMICSADNWWVTVYYGVPVWKEATTTLFCASDAKAYETEVHNVWATHACVPTDPNPQEVALENVTENFNMWKNNMVEQMQEDIISLWDQSLKPCVELTPLCVTLNCTNVNNTRTNSTISGPTAKPGEEEMKNCSFNITTGIRDKIKKEYALFYKLDVVPIDDSNTSYRLISCNTSVIKQACPKVSFEPIPIHYCAPAGFAILKCRDKQFNGTGPCRNVSTVQCTHGIKPVVTTQLLLNGSLAEEEVVIRSANFSDNAKIIIVQLNESVQINCTRPNNNTRKSIPIGPGRAFYATGDIIGDIRQAHCDISKTRWNNTLKLIREKLKTQFGDKTIVFNQSSGGDPEIVTHSFNCGGEFFYCNTTPLFNSTEGSNTTAENNTTDIITLQCRIKQIINMWQKVGKAMYAPPIRGNISCSSNITGLLLTRDGGNTTDNGSEIFRPGGGDMRDNWRSELYKYKVVKIEPIGLAPTKAKRRVVQREKRALGMGALFLGFLGAAGSTMGAASVTLTVQARQLLSGIVQQQNNLLRAIEAQQHLLQLTVWGIKQLQARVLAVESYLRDQQLLGIWGCSGKLICTTAVPWNISWSKSKSWNKTNLADIWENMTWMQWESEIDNYTNIIYQLIEESQNQQEKNEKDLLELDKWASLWNWFSISNWLWYIKLFIMIVGGLIGLRIIFSVLSIVNRVRQGYSPLSFQTRPPAARGHDRPERIEEGGGDRDRDRSNQLVDGFLALIWVDLRSLCLFSYHRLRDFLLVVTRIVELLGRRGWEILKYWWNLLQYWSQELKNSAVSLLNATAIAVAEGTDRVIEIVQRAFRAIIHIPTRIRQGFERALL	> 50 µg/mL	0.186 µg/mL	> 50 µg/mL	0.78 µg/mL
HIV-1 Env, rebound clone, antibody arm (protein) MRVREIRRNYLWRWGTLLLGILMMICSADNWWVTVYYGVPVWKEATTTLFCASDAKAYETEVHNVWATHACVPTDPNPQEVALENVTENFNMWKNNMVEQMQEDIISLWDQSLKPCVELTPLCVTLNCTNVNNTRTNSTISGPTAKPGEEEMKNCSFNITTGIRDKIKKEYALFYKLDVVPIDDSNTSYRLISCNTSVIKQACPKVSFEPIPIHYCAPAGFAILKCRDKQFNGTGPCRNVSTVQCTHGIKPVVTTQLLLNGSLAEEEVVIRSANFSDNAKIIIVQLNESVQINCTRPNNNTRKSIPIGPGRAFYATGDIIGDIRQAHCDISKTRWNNTLKLIREKLKTQFGDKTIVFNQSSGGDPEIVTHSFNCGGEFFYCNTTPLFNSTEGSNTTAENNTTDIITLQCRIKQIINMWQKVGKAMYAPPIRGNISCSSNITGLLLTRDGGNTTDNGSEIFRPGGGDMRDNWRSELYKYKVVKIEPIGLAPTKAKRRVVQREKRALGMGALFLGFLGAAGSTMGAASVTLTVQARQLLSGIVQQQNNLLRAIEAQQHLLQLTVWGIKQLQARVLAVESYLRDQQLLGIWGCSGKLICTTAVPWNISWSKSKSWNKTNLADIWENMTWMQWESEIDNYTNIIYQLIEESQNQQEKNEKDLLELDKWASLWNWFSISNWLWYIKLFIMIVGGLIGLRIIFSVLSIVNRVRQGYSPLSFQTRPPAARGHDRPEGIEEGGGNRDRDRSNQLVDGFLALIWVDLRSLCLFSYHRLRDFLLVVTRIVELLGRRGWEILKYWWNLLQYWSQELKNSAVSLLNATAIAVAEGTDRVIEIVQRAFRAIIHIPTRIRQGFERALL	> 50 µg/mL	0.233 µg/mL	> 50 µg/mL	0.79 µg/mL
HIV-1 Env, rebound clone, antibody arm (protein) MRVREIRRNYLWRWGTLLLGILMMICSADNWWVTVYYGVPVWKEATTTLFCASDAKAYETEVHNVWATHACVPTDPNPQEVALENVTENFNMWKNNMVEQMQEDIISLWDQSLKPCVELTPLCVTLNCTNVNNTRTNSTISGPTAKPGEEEMKNCSFNITTGIRDKIKKEYALFYKLDVVPIDDSNTSYRLISCNTSVIKQACPKVSFEPIPIHYCAPAGFAILKCRDKQFNGTGPCRNVSTVQCTHGIKPVVTTQLLLNGSLAEEEVVIRSANFSDNAKIIIVQLNESVQINCTRPNNNTRKSIPIGPGRAFYATGDIIGDIRQAHCDISKTRWNNTLKLIREKLKTQFGDKTIVFNQSSGGDPEIVTHSFNCGGEFFYCNTTPLFNSTEGSNTTAENNTTDIITLQCRIKQIINMWQKVGKAMYAPPIRGNISCSSNITGLLLTRDGGNTTDNGSEIFRPGGGDMRDNWRSELYKYKVVKIEPIGLAPTKAKRRVVQREKRALGMGALFLGFLGAAGSTMGAASVTLTVQARQLLSGIVQQQNNLLRAIEAQQHLLQLTVWGIKQLQARVLAVESYQRDQQLLGIWGCSGKLICTTAVPWNISWSKSKSWNKTNLADIWENMTWMQWESEIDNYTNIIYQLIEESQNQQEKNEKDLLELDKWASLWNWFSISNWLWYIKLFIMIVGGLIGLRIIFSVLSIVNRVRQGYSPLSFQTRPPAARGHDRPEGIEEGGGDRDRDRSNQLVDGFLALIWVDLRSLCLFSYHRLRDFLLVVTRIVELLGRRGWEILKYWWNLLQYWSQELKNSAVSLLNATAIAVAEGTDRVIEIVQRAFRAIIHIPTRIRQGFERALL	> 50 µg/mL	0.119 µg/mL	> 50 µg/mL	0.446 µg/mL

Source: the supplement of paper PMC12637763
